Data published in article PMC11993163.

Assays:
[1] = biological target: PfNPM A1 (residues 1-110, up to A1 acidic tract) (Plasmodium falciparum) (UniProt C0H4U4); test: pull-down
[2] = biological target: PfNPM A3 (residues 1-170, up to A3 acidic tract) (Plasmodium falciparum) (UniProt C0H4U4); test: pull-down

## assembled H2A/H2B dimer (from UniProt P06897 1-130; P02281 1-126) (complex)
[1]
  highest NaCl concentration at which the complex was stable: 400 mM NaCl
[2]
  highest NaCl concentration at which the complex was stable: 400 mM NaCl
